Pooled drug test results. Numbers come from NIAID ChemDB, via PubChem.

Common to all: whole-cell or culture tests; organism: HIV-1; cell line: 293T; measure: EC50

Rows are shuffled and stem from different studies. ECn is the concentration giving n% inhibition of infection, replication or growth. Blank or dashed fields: not listed here.

SMILES | strain or isolate | changes | method | setting | value
CC(C)=CCC[C@@H](C)[C@H]1C2=C(C(=O)OC2)[C@H]2C[C@H]2[C@H](C)C[C@H]1O |  |  | luciferase | pseudotyped | >30 µM
CS[C@@]1(Cc2ccccc2O)NC(=O)/C(=C/c2ccccc2)NC1=O | NL4-3 |  | luciferase / luminescence |  | 6.7 µM
COc1cccc(C(=O)[C@@H]2[C@@H](c3ccc([N+](=O)[O-])c(OC)c3)[C@](C#N)(C(N)=O)[C@H]3CCc4cc(C)ccc4N23)c1 |  |  | luciferase |  | >60 µM
CC(=O)[C@H]1C/C=C(\C)C(=O)C[C@@H]2[C@@](C)(C/C=C/1C)CC[C@@]2(O)C(C)C |  |  | luciferase | pseudotyped | >30 µM
CS[C@@]12CC3=CC=C[C@H](O)[C@H]3N1C(=O)[C@@]13C[C@@H]4[C@@H]([C@@H](O)[C@@H](C[C@@H]4O)S1)N3C2=O | NL4-3 |  | luciferase / luminescence |  | 11.5 µM
COc1cccc(C(=O)[C@@H]2[C@@H](c3ccccc3)[C@](C#N)(C(N)=O)[C@H]3CCc4cc(C)ccc4N23)c1 |  |  | luciferase |  | 13.7 µM
Nc1c(C(=O)NCc2ccc(F)cc2F)c(=O)n(O)c2ncc(CCCCCCO)cc12 |  | Y143C | luciferase | pseudotyped | 0.0012 µM
COc1cccc(C(=O)C2C(c3ccc(Cl)cc3)C(C#N)(C(N)=O)C3CCc4cc(C)ccc4N23)c1 |  |  | luciferase |  | 12.5 µM
CS[C@@]1(Cc2ccccc2)NC(=O)[C@@](O)(Cc2ccccc2)NC1=O | NL4-3 |  | luciferase / luminescence |  | 5.9 µM
C=C1C[C@@H](O)[C@@H]([C@@](C)(O)CCC=C(C)C)[C@@H](O)[C@@H]2C(C)=CC[C@@H]12 |  |  | luciferase | pseudotyped | 26.1 µM
CS[C@@]12CC3=CC=C[C@H](O)[C@H]3N1C(=O)[C@@]13C[C@H]4C(=O)C[C@@H](S1)[C@H](O)[C@H]4N3C2=O | NL4-3 |  | luciferase / luminescence |  | 14.8 µM
CC(=O)O[C@@H]1C[C@@H](C)[C@@H]2C[C@@H]2C2=C([C@@H]1[C@H](C)CCC=C(C)C)[C@H](O)OC2=O |  |  | luciferase | pseudotyped | >30 µM
Cc1ccc2c(c1)CC[C@H]1N2[C@H](C(=O)c2ccsc2)[C@@H](c2ccc(Cl)cc2)[C@]1(C#N)C(N)=O |  |  | luciferase |  | 46 µM
CC(=O)OC/C1=C/C/C=C(\C)C[C@@H](O)[C@@H]([C@H](C)CCC=C(C)C)[C@@H]1CO |  |  | luciferase | pseudotyped | >30 µM
CS[C@@]12C[C@@H]3C(=O)C=C[C@H](O)[C@H]3N1C(=O)[C@]1(SC)CC3=CC=C[C@H](O)[C@H]3N1C2=O | NL4-3 |  | luciferase / luminescence |  | 3.2 µM